{"sequences": {"note": "Chains of the proteins cited; added tags and fusions are not shown.", "UniProt O15393, whole entry": "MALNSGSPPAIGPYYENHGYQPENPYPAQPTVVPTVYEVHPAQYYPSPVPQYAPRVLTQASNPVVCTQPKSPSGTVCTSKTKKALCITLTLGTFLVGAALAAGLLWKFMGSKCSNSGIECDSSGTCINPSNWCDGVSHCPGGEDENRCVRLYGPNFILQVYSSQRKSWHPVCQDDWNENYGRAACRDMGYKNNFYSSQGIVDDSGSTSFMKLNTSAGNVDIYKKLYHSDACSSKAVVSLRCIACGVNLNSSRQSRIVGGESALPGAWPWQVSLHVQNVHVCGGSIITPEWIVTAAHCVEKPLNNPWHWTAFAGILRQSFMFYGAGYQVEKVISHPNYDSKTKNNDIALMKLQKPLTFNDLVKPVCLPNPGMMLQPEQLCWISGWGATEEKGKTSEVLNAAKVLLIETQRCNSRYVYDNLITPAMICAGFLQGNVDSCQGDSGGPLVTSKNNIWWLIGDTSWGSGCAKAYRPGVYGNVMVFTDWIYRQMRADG"}, "source": "paper PMC9270327", "about": "(Communications Biology, 2022)", "key": {"[1]": {"system": "lentiviral pseudoparticles carrying SARS-CoV-2 Delta (B.1.617.2) spike, Caco-2 cells", "experiment": "Pseudovirus inhibition assay, Delta spike", "conditions": "for SARS-CoV-2 spike driven entry, Mean (0 nM = 100): Fig. 5d, Delta spike pseudoparticles"}, "[2]": {"system": "lentiviral pseudoparticles carrying SARS-CoV-2 Omicron BA.1 (B.1.1.529) spike, Caco-2 cells", "experiment": "Pseudovirus inhibition assay, Omicron BA.1 spike", "conditions": "for SARS-CoV-2 spike driven entry, Mean (0 nM = 100): Fig. 5e, Omicron BA.1 spike pseudoparticles"}, "[3]": {"system": "SARS-CoV-2 Wuhan-Hu-1, Caco-2 cells", "experiment": "SARS-CoV-2 inhibition assay, Wuhan-Hu-1 (in-cell ELISA)", "conditions": "for SARS-CoV-2 infection, Mean (0 nM = 100): Fig. 6a, Wuhan-Hu-1; for IC50: read-out: IC50 SARS-CoV-2 Wuhan-Hu-1, Caco-2 cells"}, "[4]": {"system": "SARS-CoV-2 Alpha (B.1.1.7), Caco-2 cells", "experiment": "SARS-CoV-2 inhibition assay, VOC Alpha (in-cell ELISA)", "conditions": "for SARS-CoV-2 infection, Mean (0 nM = 100): Fig. 6c, VOC Alpha"}, "[5]": {"system": "SARS-CoV-2 Beta (B.1.351), Caco-2 cells", "experiment": "SARS-CoV-2 inhibition assay, VOC Beta (in-cell ELISA)", "conditions": "for SARS-CoV-2 infection, Mean (0 nM = 100): Fig. 6d, VOC Beta"}, "[6]": {"molecular_target": "TMPRSS2 (Homo sapiens, UniProt O15393)", "conditions": "for TMPRSS2 activity, Mean (Fig. 2a): normalized, 0 nM = 100"}, "[7]": {"molecular_target": "cellular TMPRSS2 activity, Caco-2 cells (Homo sapiens, UniProt O15393)", "conditions": "for cellular protease activity on Caco-2 cells, Mean (Fig. 4a): normalized, 0 nM = 100"}}, "note": "Where two headings read alike, the source gives them in different places."}
{"smiles": "CC(=O)N[C@@H](Cc1c[nH]cn1)C(=O)N1CCC[C@H]1C(=O)NC(CCCNC(=N)N)C(=O)c1nc2ccccc2s1", "note": "(some centres unmarked)", "values": [{"measurement": "SARS-CoV-2 spike driven entry, Mean (0 nM = 100)", "setting": "[1]; compound 10000 nM", "result": 6.7}, {"measurement": "SARS-CoV-2 spike driven entry, Mean (0 nM = 100)", "setting": "[1]; compound 50000 nM", "result": 0.8724}, {"measurement": "IC50", "setting": "[1]; read-out: IC50 pseudotyped lentivirus Delta, Caco-2 cells, luciferase 2 days post transduction", "result": 610, "unit": "nM"}, {"measurement": "SARS-CoV-2 spike driven entry, Mean (0 nM = 100)", "setting": "[2]; compound 3.2 nM", "result": 97.4758}, {"measurement": "SARS-CoV-2 spike driven entry, Mean (0 nM = 100)", "setting": "[2]; compound 16 nM", "result": 88.0896}, {"measurement": "SARS-CoV-2 spike driven entry, Mean (0 nM = 100)", "setting": "[2]; compound 80 nM", "result": 76.0004}, {"measurement": "SARS-CoV-2 spike driven entry, Mean (0 nM = 100)", "setting": "[2]; compound 400 nM", "result": 46.5624}, {"measurement": "SARS-CoV-2 spike driven entry, Mean (0 nM = 100)", "setting": "[2]; compound 2000 nM", "result": 21.5607}, {"measurement": "SARS-CoV-2 spike driven entry, Mean (0 nM = 100)", "setting": "[2]; compound 10000 nM", "result": 5.826}, {"measurement": "SARS-CoV-2 spike driven entry, Mean (0 nM = 100)", "setting": "[2]; compound 50000 nM", "result": 3.492}, {"measurement": "IC50", "setting": "[2]; read-out: IC50 pseudotyped lentivirus Omicron BA.1, Caco-2 cells, luciferase 2 days post transduction", "result": 339, "unit": "nM"}, {"measurement": "SARS-CoV-2 infection, Mean (0 nM = 100)", "setting": "[3]; compound 32 nM", "result": 100.452}, {"measurement": "SARS-CoV-2 infection, Mean (0 nM = 100)", "setting": "[3]; compound 160 nM", "result": 100.529}, {"measurement": "SARS-CoV-2 infection, Mean (0 nM = 100)", "setting": "[3]; compound 800 nM", "result": 106.01}, {"measurement": "SARS-CoV-2 infection, Mean (0 nM = 100)", "setting": "[3]; compound 4000 nM", "result": 60.732}, {"measurement": "SARS-CoV-2 infection, Mean (0 nM = 100)", "setting": "[3]; compound 20000 nM", "result": 15.3086}, {"measurement": "SARS-CoV-2 infection, Mean (0 nM = 100)", "setting": "[3]; compound 100000 nM", "result": -2.169}, {"measurement": "IC50", "setting": "[3]; 2 days post infection", "result": 5.7, "unit": "µM"}, {"measurement": "IC50", "setting": "[3]; in-cell ELISA 2 days post infection", "result": 5.67, "unit": "µM"}, {"measurement": "SARS-CoV-2 infection, Mean (0 nM = 100)", "setting": "[4]; compound 32 nM", "result": 97.9558}, {"measurement": "SARS-CoV-2 infection, Mean (0 nM = 100)", "setting": "[4]; compound 160 nM", "result": 100.192}, {"measurement": "SARS-CoV-2 infection, Mean (0 nM = 100)", "setting": "[4]; compound 800 nM", "result": 104.696}, {"measurement": "SARS-CoV-2 infection, Mean (0 nM = 100)", "setting": "[4]; compound 4000 nM", "result": 113.063}, {"measurement": "SARS-CoV-2 infection, Mean (0 nM = 100)", "setting": "[4]; compound 20000 nM", "result": 2.3474}, {"measurement": "SARS-CoV-2 infection, Mean (0 nM = 100)", "setting": "[4]; compound 100000 nM", "result": -2.466}, {"measurement": "IC50", "setting": "[4]; read-out: IC50 SARS-CoV-2 Alpha, Caco-2 cells, in-cell ELISA 2 days post infection", "result": 20, "unit": "µM"}, {"measurement": "SARS-CoV-2 infection, Mean (0 nM = 100)", "setting": "[5]; compound 32 nM", "result": 92.6748}, {"measurement": "SARS-CoV-2 infection, Mean (0 nM = 100)", "setting": "[5]; compound 160 nM", "result": 84.2498}, {"measurement": "SARS-CoV-2 infection, Mean (0 nM = 100)", "setting": "[5]; compound 800 nM", "result": 79.3268}, {"measurement": "SARS-CoV-2 infection, Mean (0 nM = 100)", "setting": "[5]; compound 4000 nM", "result": 82.5645}, {"measurement": "SARS-CoV-2 infection, Mean (0 nM = 100)", "setting": "[5]; compound 20000 nM", "result": 4.476}, {"measurement": "SARS-CoV-2 infection, Mean (0 nM = 100)", "setting": "[5]; compound 100000 nM", "result": -2.262}, {"measurement": "IC50", "setting": "[5]; read-out: IC50 SARS-CoV-2 Beta, Caco-2 cells, in-cell ELISA 2 days post infection", "result": 6.99, "unit": "µM"}, {"measurement": "TMPRSS2 activity, Mean (Fig. 2a)", "setting": "[6]; 0.05 nM", "result": 97.5}, {"measurement": "TMPRSS2 activity, Mean (Fig. 2a)", "setting": "[6]; 0.5 nM", "result": 100}, {"measurement": "TMPRSS2 activity, Mean (Fig. 2a)", "setting": "[6]; 5 nM", "result": 79.4231}, {"measurement": "TMPRSS2 activity, Mean (Fig. 2a)", "setting": "[6]; 50 nM", "result": 29.0385}, {"measurement": "TMPRSS2 activity, Mean (Fig. 2a)", "setting": "[6]; 500 nM", "result": 2.885}, {"measurement": "TMPRSS2 activity, Mean (Fig. 2a)", "setting": "[6]; 5000 nM", "result": 0.7692}, {"measurement": "TMPRSS2 activity, Mean (Fig. 2a)", "setting": "[6]; 50000 nM", "result": 0.3846}, {"measurement": "TMPRSS2 activity, Mean (Fig. 2a)", "setting": "[6]; 500000 nM", "result": 0}, {"measurement": "Ki", "setting": "[6]; read-out: Ki TMPRSS2, 30 min preincubation, substrate Boc-Gln-Ala-Arg-AMC, Ki from IC50 by Cheng–Prusoff", "result": 8.5, "unit": "nM"}, {"measurement": "cellular protease activity on Caco-2 cells, Mean (Fig. 4a)", "setting": "[7]; 0.1 nM", "result": 84.1146}, {"measurement": "cellular protease activity on Caco-2 cells, Mean (Fig. 4a)", "setting": "[7]; 1 nM", "result": 93.75}, {"measurement": "cellular protease activity on Caco-2 cells, Mean (Fig. 4a)", "setting": "[7]; 10 nM", "result": 77.3438}, {"measurement": "cellular protease activity on Caco-2 cells, Mean (Fig. 4a)", "setting": "[7]; 100 nM", "result": 32.8125}, {"measurement": "cellular protease activity on Caco-2 cells, Mean (Fig. 4a)", "setting": "[7]; 1000 nM", "result": 15.625}, {"measurement": "cellular protease activity on Caco-2 cells, Mean (Fig. 4a)", "setting": "[7]; 10000 nM", "result": 2.344}, {"measurement": "cellular protease activity on Caco-2 cells, Mean (Fig. 4a)", "setting": "[7]; 100000 nM", "result": 2.865}, {"measurement": "IC50", "setting": "[7]; read-out: IC50 Caco2, cell-mediated proteolysis of Boc-Gln-Ala-Arg-AMC, 30 min preincubation", "result": 45.5, "unit": "nM"}]}
